One molecule from patent US20120294879A1, “CONSENSUS SEQUENCE FOR INFLUENZA A VIRUS” (priority 2009, published 2012) can be followed below.

This assay deals with HLA-DR2 (DRB1*1501), chimeric DRA1*0101:I-Eα and DRB1*1501:I-Eβ, as expressed in HLA-DR2 transgenic mice (human; mouse), Q8BHN5. Briefly: cell-based or functional assay.

On to LEVCFMYSDFHFINEQG (modifications not checked) [PA 42-58 peptide of influenza virus A/New York/348/2003 (H1N1)], for which the lowest concentration of peptide giving positive ELISpot response stood at 1 µg/mL. The same molecule yielded an IFN-γ ELISpot at 10 µg/ml peptide, splenocytes of immunized HLA transgenic mice (scale: IFN-γ spot forming cells per million splenocytes) of 64.
